A mixed list of measured activities; the numbers were collected in NIAID ChemDB.

Common to all: whole-cell or culture tests

Inhibition is in % at the dose shown (toxicity tests: loss of growth or viability). ECn: concentration that inhibits the pathogen or its effect by n%. Conditions beyond the fields shown may differ between rows. An empty or dashed field is not shown. Zone: diameter of growth inhibition. MIC50, MIC90 and the like: level of inhibition, or share of isolates inhibited.

| structure | endpoint | organism | setting | strain | cells | method | tested at | result |
|---|---|---|---|---|---|---|---|---|
| Nc1nccc2c1ncn2[C@@H]1C[C@H](CO)[C@@H](O)[C@H]1O | EC50 | Vesicular stomatitis virus |  |  | HeLa | cytopathic effect |  | 2 µg/mL |
| Nc1ncnc2c1ccn2[C@@H]1O[C@H](CO)[C@@H](O)[C@H]1O | EC50 | Tacaribe virus |  | TRVL 11573 | VERO | cytopathic effect |  | 0.03 µg/mL |
| C#CC[C@@H](C(=O)N[C@H](/C=C/C(=O)OCC)C[C@@H]1CCNC1=O)n1cccc(NC(=O)c2cc(C)on2)c1=O | EC50 | Rhinovirus |  | Serotype 86 | H1-HELA | cytopathic effect / XTT |  | 0.071 µM |
| CCC(CCC(C)C1CCC2C3C[C@@H](O)[C@@]4(O)C[C@@H](O)CCC4(C)C3CCC12C)C(C)C | inhibition | Hepatitis B virus |  |  | HepG2 2.2.15 | antigen | 100 µg/mL | 40.8% |
| Cc1ccc(N2NOC(=O)C2S(=O)(=O)Nc2ccc(-n3c(-c4ccc(Cl)cc4)nc4ccccc4c3=O)cc2)cc1 | zone | Aspergillus clavatus |  | MTCC323 |  | agar diffusion | 250 µg/mL | 25 mm |
| COc1cc(NC(C)CCCN)c2ncccc2c1 | inhibition | Pneumocystis carinii | 10 d |  |  |  | 10 µg/mL | 100% |
| O=C(Nc1ccc(C(F)(F)F)cc1)c1cc(Cl)ccc1OP(=O)(c1ccccc1)c1ccccc1 | MIC | Mycobacterium kansasii | 21 d | My 235/80 |  |  |  | 4 µM |
| Cc1ccc(N2NOC(=O)C2S(=O)(=O)Nc2nc3cc(F)ccc3s2)cc1 | MIC | Aspergillus clavatus |  | MTCC323 |  | broth dilution |  | 250 µg/mL |
| C=CCc1ccc(O)c(-c2ccc(O)c(CC=C)c2)c1 | MIC | Candida albicans |  | YL 349 |  | broth dilution |  | 64 µg/mL |
| C[C@H](COc1cc(N)nc(N)n1)OCP(=O)(O)O | EC50 | Punta Toro virus |  |  |  | cytopathic effect |  | >180 µM |
| Nc1ccn([C@@H]2C[C@H](CO)[C@@H](O)[C@H]2O)c(=O)n1 | EC50 | Tacaribe virus |  | TRVL 11573 | VERO | cytopathic effect |  | 0.3 µg/mL |
| Nc1ncnc2c1ncn2CCOCP(=O)(O)O | EC50 | Cytomegalovirus |  | AD169 |  | cytopathic effect |  | 95 µM |
| O=C(Nc1ccc(Br)cc1)c1cc(Cl)ccc1OP(=O)(c1ccccc1)c1ccccc1 | MIC | Mycobacterium kansasii | 7 d | My 6509/96 |  |  |  | 8 µM |
| Nc1nccc2c1ncn2[C@@H]1C[C@H](CO)[C@@H](O)[C@H]1O | EC50 | Vesicular stomatitis virus |  |  | E6SM | cytopathic effect |  | 0.7 µg/mL |
| Nc1ccn(C[C@@H](CO)OCP(=O)(O)O)c(=O)n1 | EC50 | Varicella zoster virus |  | PCV-resistant/A | HEL | plaque count |  | 0.064 µg/mL |
| c1ccc2c(c1)CSSC2 | EC50 | Respiratory syncytial virus |  | clone 6 (RD3-0028-resistant) | HeLa | cytopathic effect |  | >244.4 µM |
| Cc1ccc(N2NOC(=O)C2S(=O)(=O)Nc2nc(-c3ccc(F)cc3F)cs2)cc1 | zone | Aspergillus clavatus |  | MTCC323 |  | agar diffusion | 250 µg/mL | 25 mm |
| Nc1ncnc2c1ncn2C[C@@H](CO)OCP(=O)(O)O | EC50 | Varicella zoster virus |  | ACV-resistant | HEL | plaque count |  | 0.0045 µg/mL |
| Cc1ccc(N2NOC(=O)C2S(=O)(=O)Nc2ccc(-n3c(-c4c(Cl)cccc4[N+](=O)[O-])nc4ccccc4c3=O)cc2)cc1 | MIC | Aspergillus clavatus |  | MTCC323 |  | broth dilution |  | 250 µg/mL |
| Nc1nc(Cl)c2nnn(C[C@H]3CC[C@@H](CO)C3)c2n1 | EC50 | Vesicular stomatitis virus |  |  | HeLa | cytopathic effect |  | >200 µg/mL |
| CC[C@@]1(O)C(=O)OCc2c1cc1n(c2=O)Cc2cc3ccccc3nc2-1 | inhibition | Pneumocystis carinii | 7 d |  |  |  | 100 µg/mL | 56% |
| Nc1nc2c(nnn2C[C@H]2CC[C@@H](CO)C2)c(=O)[nH]1 | EC50 | Vesicular stomatitis virus |  |  | HeLa | cytopathic effect |  | >200 µg/mL |
| CC[C@H]1OC(=O)[C@H](C)[C@@H](O[C@H]2C[C@@](C)(OC)[C@@H](O)[C@H](C)O2)[C@H](C)[C@@H](O[C@@H]2O[C@H](C)C[C@H](N(C)C)[C@H]2O)[C@](C)(OC)C[C@@H](C)C(=O)[C@H](C)[C@@H](O)[C@]1(C)O | MIC | Mycobacterium massiliense |  | X71 |  | broth dilution |  | 0.25 µg/mL |
| NC(=O)c1ncn([C@H]2C=C[C@@H](CO)O2)n1 | EC50 | Punta Toro virus |  |  |  | plaque count |  | 28 µg/mL |
| O=C(Nc1ccc(Br)cc1)c1cc(Cl)ccc1OP(=O)(Oc1ccccc1)c1ccccc1 | MIC | Mycobacterium kansasii | 14 d | My 6509/96 |  |  |  | 8 µM |
| CO[C@@H]1C[C@@H](C[C@H]2CC[C@H](C)[C@H](CC(O)CCC(C)/C=C(\C)C(=O)O)O2)OC2(O[C@](C)([C@H]3CC[C@@](C)([C@@H]4O[C@@H]([C@H]5O[C@@](O)(CO)[C@H](C)C[C@@H]5C)C[C@@H]4C)O3)C[C@H]2C)[C@@H]1C | inhibition | Toxoplasma gondii |  | RH |  | uracil uptake / radiometric | 1 µg/mL | 100% |
| Nc1ncnc2c1ccn2[C@@H]1O[C@H](CO)[C@@H](O)[C@H]1O | EC50 | Vesicular stomatitis virus |  |  | PRK | cytopathic effect |  | 0.02 µg/mL |
| Nc1nccc2c1ncn2[C@@H]1C=C(CO)[C@@H](O)[C@H]1O | EC50 | Tacaribe virus |  | TRVL 11573 | VERO | cytopathic effect |  | 1.5 µg/mL |
| Cc1ccc(N2NOC(=O)C2S(=O)(=O)Nc2nc(-c3ccc(Br)cc3)cs2)cc1 | MIC | Aspergillus clavatus |  | MTCC323 |  | broth dilution |  | 250 µg/mL |
| COc1ccc(-c2oc3c(CC=C(C)C)c(OC4O[C@H](CO)[C@@H](O)[C@H](O)[C@H]4O)cc(O)c3c(=O)c2O[C@@H]2O[C@@H](C)[C@H](O)[C@@H](O)[C@H]2O)cc1 | EC50 | SIV |  | MAC251 | PBMC | PCR |  | 7.314 µM |
| O=C(Nc1ccc(C(F)(F)F)cc1)c1cc(Br)ccc1OP(=O)(Oc1ccccc1)Oc1ccccc1 | MIC | Mycobacterium kansasii | 14 d | My 6509/96 |  |  |  | 4 µM |
| Cc1ccc(N2NOC(=O)C2S(=O)(=O)Nc2nc3ccc(Cl)cc3s2)cc1 | zone | Aspergillus clavatus |  | MTCC323 |  | agar diffusion | 250 µg/mL | 22 mm |
| O=C(Nc1ccccc1)c1ccccc1OP(=O)(c1ccccc1)c1ccccc1 | MIC | Mycobacterium kansasii | 21 d | My 235/80 |  |  |  | 250 µM |
| CN(C)c1cc(NC(=O)CNC(C)(C)C)c(O)c2c1C[C@H]1C[C@H]3[C@H](N(C)C)C(=O)C(C(N)=O)=C(O)[C@@]3(O)C(=O)C1=C2O | MIC | Mycobacterium abscessus |  | T45 |  | broth dilution |  | 0.25 µg/mL |
| O=C(Nc1ccc(Cl)cc1)c1cc(Cl)ccc1OP(=O)(c1ccccc1)c1ccccc1 | MIC | Mycobacterium kansasii | 7 d | My 235/80 |  |  |  | 4 µM |
| C[C@H]1CN(c2c(F)cc3c(=O)c(C(=O)O)cn(C4CC4)c3c2OC(F)F)CCN1 | MIC50 | Staphylococcus aureus |  | 10 strains (oxacillin-resistant) |  |  |  | 0.5 µg/mL |
| Nc1ncnc2c1ccn2[C@@H]1O[C@H](CO)[C@H](O)[C@H]1O | EC50 | Tacaribe virus |  | TRVL 11573 | VERO | cytopathic effect |  | 5 µg/mL |
| O=C(O)P(=O)(O)O | inhibition | HIV-1 | 6 d | IIIB | PBL | RT activity | 64 µM | 96% |
| NC(=O)c1ncn([C@@H]2O[C@H](CO)[C@@H](O)[C@H]2O)n1 | inhibition | Respiratory syncytial virus |  | 109 | HEP-2 | plaque count | 4 µg/mL | 75% |
| Nc1nc(N)c2nnn(C[C@H]3CC[C@@H](CO)C3)c2n1 | EC50 | Vesicular stomatitis virus |  |  | HeLa | cytopathic effect |  | >200 µg/mL |
| Nc1cc(OC[C@H](CO)OCP(=O)(O)O)nc(N)n1 | EC50 | Cytomegalovirus |  | AD169 |  | cytopathic effect |  | 139 µM |
| O=C(Nc1ccc(C(F)(F)F)cc1)c1cc(Br)ccc1OP(=O)(c1ccccc1)c1ccccc1 | MIC | Mycobacterium kansasii | 21 d | My 6509/96 |  |  |  | 4 µM |
| O=c1[nH]c(=O)n([C@@H]2O[C@H](CO)[C@@H](O)[C@@H]2O)cc1/C=C/Br | EC50 | Varicella zoster virus |  | PFA-resistant/A | HEL | plaque count |  | 0.00013 µg/mL |
| COc1ccc2nc(NS(=O)(=O)C3C(=O)ONN3c3ccc(C)cc3)sc2c1 | MIC | Aspergillus clavatus |  | MTCC323 |  | broth dilution |  | 250 µg/mL |
| CN1CCC2(C1)C1CC3CC(C1)CC2C3 | MIC | Influenza A virus |  | A/University of Maryland/2/72 |  |  |  | 0.1 µg/mL |
| Nc1nc(N)c2ncn(CCOCP(=O)(O)O)c2n1 | EC50 | Varicella zoster virus |  | PMEDAP-resistant | HEL | plaque count |  | 7.6 µg/mL |
| O=c1[nH]c(=O)n([C@H]2C[C@H](O)[C@@H](CO)O2)cc1/C=C/Br | EC50 | Vesicular stomatitis virus |  |  | HeLa | cytopathic effect |  | >400 µg/mL |

For reference, 6 entries again:

structure	endpoint	organism	setting	strain	cells	method	tested at	result
C#CC[C@@H](C(=O)N[C@H](/C=C/C(=O)OCC)C[C@@H]1CCNC1=O)n1cccc(NC(=O)c2cc(C)on2)c1=O	EC50	Rhinovirus		Serotype 86	H1-HELA	cytopathic effect / XTT		0.071 µM
O=C(Nc1ccc(C(F)(F)F)cc1)c1cc(Br)ccc1OP(=O)(c1ccccc1)c1ccccc1	MIC	Mycobacterium kansasii	21 d	My 6509/96				4 µM
Nc1nccc2c1ncn2[C@@H]1C[C@H](CO)[C@@H](O)[C@H]1O	EC50	Vesicular stomatitis virus			E6SM	cytopathic effect		0.7 µg/mL
Nc1nc(N)c2ncn(CCOCP(=O)(O)O)c2n1	EC50	Varicella zoster virus		PMEDAP-resistant	HEL	plaque count		7.6 µg/mL
CN(C)c1cc(NC(=O)CNC(C)(C)C)c(O)c2c1C[C@H]1C[C@H]3[C@H](N(C)C)C(=O)C(C(N)=O)=C(O)[C@@]3(O)C(=O)C1=C2O	MIC	Mycobacterium abscessus		T45		broth dilution		0.25 µg/mL
CCC(CCC(C)C1CCC2C3C[C@@H](O)[C@@]4(O)C[C@@H](O)CCC4(C)C3CCC12C)C(C)C	inhibition	Hepatitis B virus			HepG2 2.2.15	antigen	100 µg/mL	40.8%